Measured values from paper PMC11067372, “Evaluation of the antiplasmodial efficacy of synthetic 2,5-diphenyloxazole analogs of compounds naturally derived from Oxytropis lanata” (International Journal for Parasitology: Drugs and Drug …, 2024).

Test system: P. falciparum 3D7
Experiment: In vitro inhibition of P. falciparum 3D7 (SYBR Green I-based fluorescence assay)
Assay type: cell-based, Plasmodium falciparum
Details: dose-response curve

**Q.** COc1cccc(-c2ncc(-c3ccccc3O)o2)c1OC [Compound 31, 2-(2′,3′-dimethoxyphenyl)-5-(2″-hydroxyphenyl)oxazole] was tested. Which hill slope did it give?
**A.** Its hill slope is 2.10.

**Q.** For COc1cccc(-c2ncc(-c3ccccc3OCc3ccccc3)o2)c1OC [Compound 32, 2-(2′,3′-dimethoxyphenyl)-5-(2″-benzyloxyphenyl)oxazole], which hill slope is on record?
**A.** Its hill slope is 2.02.
